A mixed list of measured activities; the numbers were collected in NIAID ChemDB.

Shared fields: tests on isolated targets; species: HIV-1; protein: Reverse transcriptase

Conditions beyond the fields shown may differ between rows. Two numbers with a dash give a range or band. ICn is the concentration giving n% inhibition. An empty or dashed field is not shown.

structure	strain	changes	measure	method	result
Cn1c(-c2ccc(F)cc2)cs/c1=N\N=C1\C(=O)Nc2ccccc21	-	-	IC50	RT activity / nucleotide incorporation / fluorescence	30 µM
O=c1[nH]c(=O)n([C@H]2CC[C@@H](COP(=O)(O)OP(=O)(O)OP(=O)(O)O)O2)cc1/C=C/c1ccccc1	-	-	IC50	nucleotide incorporation / radiometric	0.8 µM
O=C(CSc1nnnn1-c1ccc(C2CC2)cc1Cl)Nc1ccc(C(=O)NS(=O)(=O)c2ccccc2)cc1Cl	-	RT-K103 Y181C	IC50	PicoGreen / fluorescence	<1 µM
Nc1ccc(S(=O)(=O)O)c2ccccc12	-	-	IC50	RT activity	>50 µM
Cn1c(-c2ccc(-c3ccccc3)cc2)cs/c1=N\N=C1\C(=O)Nc2ccccc21	-	-	IC50	RT activity / nucleotide incorporation / fluorescence	35 µM
O=C(O)C[C@@H]1C(=O)O[C@H]2[C@@H]3OC(=O)c4cc(O)c(O)c(O)c4-c4c(cc(O)c(O)c4O)C(=O)OC[C@H]2O[C@@H](OC(=O)c2cc(O)c(O)c(O)c2)[C@@H]3OC(=O)c2cc(O)c(O)c3c2[C@H]1[C@H](O)C(=O)O3	-	-	IC50	nucleotide incorporation	<20 µg/mL
CC(C)(C#Cc1ccc(NC(=O)CSc2nnnn2-c2ccc(C(C)(C)C)cc2Cl)c(Cl)c1)OCC(=O)Nc1cnccn1	-	RT-K103 Y181C	IC50	PicoGreen / fluorescence	<1 µM
N#Cc1ccc(Nc2nc(N)n(S(=O)(=O)c3ccc4ccccc4c3)n2)cc1Cl	IIIB	-	IC50	luciferase / RT activity	1.6 µM
C[C@@H](O)CNC(=O)c1[nH]c2ccc(Cl)cc2c1Sc1ccccc1	-	-	IC50	nucleotide incorporation	0.003–0.035 µM
Cc1nnc(SCC(=O)Nc2ccc(C#CC(C)(C)COC(N)=O)cc2Cl)n1-c1ccc(C2CC2)cc1Cl	WT	-	IC50	PicoGreen / fluorescence	<1 µM
Cc1cc(C#N)ccc1Nc1nc(N)n(S(=O)(=O)c2cccc3cc(C#N)ccc23)n1	A17	Y181C/K103N	IC50	luciferase / RT activity	290 µM
CC(C)(C)c1ccc(-n2nnnc2SCC(=O)Nc2ccc(NS(=O)(=O)c3cccs3)cc2Cl)c(Cl)c1	-	RT-K103 Y181C	IC50	PicoGreen / fluorescence	<1 µM
Cn1c(-c2ccccc2)cs/c1=N\N=C1\C(=O)Nc2ccccc21	-	-	IC50	RT activity / nucleotide incorporation / fluorescence	15 µM
COc1cc(C#N)cc(C)c1Oc1nc(NC2CCN(c3cccc(C(N)=O)c3)CC2)ncc1Cl	-	K103N/Y181C	IC50	scintillation proximity	0.05 µM
O=C(O)c1cc(NS(=O)(=O)c2cccc3c(S(=O)(=O)Nc4cc(C(=O)O)c(O)c(S(=O)(=O)O)c4)cccc23)cc(S(=O)(=O)O)c1O	-	-	IC50	RT activity	~50 µM
NC(=S)c1[nH]c2ccc(Cl)cc2c1Sc1ccccc1	-	-	IC50	nucleotide incorporation	0.003–0.035 µM
CNC(=O)COC(C)(C)C#Cc1ccc(NC(=O)CSc2nnnn2-c2ccc(C(C)(C)C)cc2Cl)c(Cl)c1	WT	-	IC50	PicoGreen / fluorescence	<1 µM
COc1ccccc1NC(=O)Cc1ccc(Oc2cc(C#N)cc(C#N)c2)c(Cl)c1	-	-	IC50	nucleotide incorporation / radiometric	10 µM
CC(C)(C)c1ccc(-n2nnnc2SCC(=O)Nc2ccc(NC(=O)c3ccccc3)cc2Cl)c(Cl)c1	WT	-	IC50	PicoGreen / fluorescence	<1 µM
COP(=O)(c1cc(C)cc(CCC#N)c1)c1c(C(N)=O)[nH]c2ccc(Cl)cc12	-	Y181C	IC50	RT activity	0.361 µM
O=C(NCc1cc[nH]c(=O)c1)c1[nH]c2ccc(Cl)cc2c1S(=O)(=O)c1ccccc1	-	-	IC50	nucleotide incorporation	0.003–0.035 µM
CC(C)(C#Cc1ccc(NC(=O)CSc2nnnn2-c2cc(C3CC3)ccc2Cl)c(Cl)c1)NC(=O)CN	WT	-	IC50	PicoGreen / fluorescence	<1 µM
N#Cc1cc(Cl)cc(Oc2ccc(CC(=O)Nc3ccc(S(N)(=O)=O)cc3)cc2Cl)c1	-	-	IC50	nucleotide incorporation / radiometric	10 µM
C#CCCC(=O)Nc1ccc(NC(=O)CSc2nnnn2-c2ccc(C(C)(C)C)cc2Cl)c(Cl)c1	-	RT-K103 Y181C	IC50	PicoGreen / fluorescence	<1 µM
O=C(CCCCCCC(=O)Nc1ccc(S(=O)(=O)O)c2cccc(S(=O)(=O)O)c12)Nc1ccc(S(=O)(=O)O)c2cccc(S(=O)(=O)O)c12	-	-	IC50	RT activity	>50 µM
Cc1c(Cl)ccc2cc(/C=C/C(=O)c3ccc(Br)cc3)c(Cl)nc12	-	-	IC50	RT activity	0.1 µg/mL
COc1cc(C#N)cc(C)c1Oc1ccnc(NC2CCN(c3cccc(C(N)=O)c3)CC2)n1	-	K103N/Y181C	IC50	scintillation proximity	0.054 µM
O=C(O[C@@H]1Cc2c(O)cc(O)cc2O[C@@H]1c1ccc(O)c(O)c1)c1cc(O)c(O)c(O)c1	-	-	IC50	nucleotide incorporation	>20 µg/mL
O=C(NCc1cccc(O)c1)c1[nH]c2ccc(Cl)cc2c1Sc1ccccc1	-	-	IC50	nucleotide incorporation	0.003–0.035 µM
COc1cc(C#N)cc(C)c1Oc1nc(NC2CCN(c3cccc(C(N)=O)c3)CC2)ncc1C	-	K103N/Y181C	IC50	scintillation proximity	0.011 µM
CC(CC(=O)O)NC(=O)COC(C)(C)C#Cc1ccc(NC(=O)CSc2nnnn2-c2ccc(C(C)(C)C)cc2Cl)c(Cl)c1	-	RT-K103 Y181C	IC50	PicoGreen / fluorescence	<1 µM
C=Cc1nc(SC)nc(N(C)C)c1Cl	-	RT-K103N	Ki	nucleotide incorporation / radiometric	>400 µM
O=C(OCC1O[C@@H](O)C(O)(COC(=O)c2cc(O)c(O)c(O)c2)C1OC(=O)c1cc(O)c(O)c(O)c1)c1cc(O)c(O)c(O)c1	-	-	IC50	nucleotide incorporation	>20 µg/mL
CNS(=O)(=O)c1ccc(NC(=O)CSc2nnnn2-c2ccc(C(C)(C)C)cc2Cl)c(Cl)c1	WT	-	IC50	PicoGreen / fluorescence	<1 µM
Oc1cc(O)c2c(c1)O[C@H](c1ccc(O)c(O)c1)[C@H](O)[C@H]2c1c(O)cc(O)c2c1O[C@H](c1ccc(O)c(O)c1)[C@H](O)[C@H]2c1c(O)cc(O)c2c1O[C@H](c1ccc(O)c(O)c1)[C@H](O)C2	-	-	IC50	nucleotide incorporation	>20 µg/mL
CC(C)(C#Cc1ccc(NC(=O)CSc2nnnn2-c2ccc(C3CC3)cc2Cl)c(Cl)c1)OCCN1CCS(=O)(=O)CC1	-	RT-K103 Y181C	IC50	PicoGreen / fluorescence	<1 µM
O=C(NCCc1cnc[nH]1)c1[nH]c2ccc(Cl)cc2c1S(=O)(=O)c1ccccc1	-	-	IC50	nucleotide incorporation	0.003–0.035 µM
Cc1c(Cl)ccc2cc(/C=C/c3csc(Cl)c3)c(Cl)nc12	-	-	IC50	RT activity	0.13 µg/mL
C=Cc1cc(N(C)C)nc(S(C)(=O)=O)n1	-	RT-Y181I	Ki	nucleotide incorporation / radiometric	39 µM
CN(C)S(=O)(=O)c1ccc(NC(=O)Cc2ccc(Oc3cc(C#N)cc(C#N)c3)c(Cl)c2)cc1	-	-	IC50	nucleotide incorporation / radiometric	100 µM
COc1ccc(/C=C/CSc2nc([C@H](C)c3c(F)cccc3F)c(C)c(=O)[nH]2)cc1	-	WT	IC50	RT activity / nucleotide incorporation	0.01 µM
CCCCCCCCCCCCCCCC(=O)Nc1c(O)cc(S(=O)(=O)O)c2ccccc12	-	-	IC50	RT activity	<50 µM
O=[N+]([O-])c1ccccc1S(=O)(=O)c1ccccc1	-	-	IC50	-	19 µM
O=c1[nH]c(=O)n([C@H]2C[C@H](O)[C@@H](COP(=O)(O)OP(=O)(O)OP(=O)(O)O)O2)cc1/C=C/c1ccccc1	-	-	IC50	nucleotide incorporation / radiometric	1.8 µM
CC(C)(C#Cc1ccc(NC(=O)CSc2nnnn2-c2ccc(C3CC3)cc2Cl)c(Cl)c1F)OCCN1CCNCC1	WT	-	IC50	PicoGreen / fluorescence	<1 µM
Cc1cccc(NC(=O)Cc2ccc(Oc3cc(C#N)cc(C#N)c3)c(Cl)c2)c1C	-	-	IC50	nucleotide incorporation / radiometric	100 µM
O=C(O)C1=C[C@@H](OC(=O)c2cc(O)c(O)c(O)c2)[C@@H](O)[C@H](OC(=O)c2cc(O)c(O)c(O)c2)C1	-	-	IC50	nucleotide incorporation	<20 µg/mL
Cc1cc(C)c(-n2nnnc2SCC(=O)Nc2ccc(C#CC(C)(C)O)cc2Cl)c(Cl)c1	-	RT-K103 Y181C	IC50	PicoGreen / fluorescence	<1 µM
Cn1c(-c2cccc([N+](=O)[O-])c2)cs/c1=N\N=C1\C(=O)Nc2ccccc21	-	-	IC50	RT activity / nucleotide incorporation / fluorescence	69 µM
COC(=O)CSc1ccc(NC(=O)Cc2ccc(Oc3cc(C#N)cc(C#N)c3)c(Cl)c2)cc1	-	-	IC50	nucleotide incorporation / radiometric	100 µM
CC(C)(C#Cc1ccc(NC(=O)CSc2nnnn2-c2ccc(C(C)(C)C)cc2Cl)c(Cl)c1)OCC(=O)NCC(=O)O	-	RT-K103 Y181C	IC50	PicoGreen / fluorescence	<1 µM
Cc1cnc(NC2CCN(c3cccc(C(N)=O)c3)CC2)nc1Oc1c(C)cc(C#N)cc1Cl	-	K103N/Y181C	IC50	scintillation proximity	0.02 µM
O=C(N[C@@H](CO)c1ccccc1)c1[nH]c2ccc(Cl)cc2c1S(=O)(=O)c1ccccc1	-	-	IC50	nucleotide incorporation	0.003–0.035 µM
CC(C)(C)c1ccc(-n2nnnc2SCC(=O)Nc2ccc(NC(=O)Cc3c[nH]c4ccccc34)cc2Cl)c(Cl)c1	-	RT-K103 Y181C	IC50	PicoGreen / fluorescence	<1 µM
Cn1c(-c2ccc(Cl)c(Cl)c2)cs/c1=N\N=C1\C(=O)Nc2ccc(Cl)cc21	-	-	IC50	RT activity / nucleotide incorporation / fluorescence	98 µM
CC(C)(C)c1ccc(-n2nnnc2SCC(=O)Nc2ccc(-c3ccc(OCCN4CC[C@@H](O)C4)cc3)cc2Cl)c(Cl)c1	WT	-	IC50	PicoGreen / fluorescence	<1 µM
CC(C)c1ccccc1NC(=O)Cc1ccc(Oc2cc(C#N)cc(C#N)c2)c(Cl)c1	-	-	IC50	nucleotide incorporation / radiometric	100 µM
Cn1c(-c2ccc(C#N)cc2)cs/c1=N\N=C1\C(=O)Nc2ccc(Cl)cc21	-	-	IC50	RT activity / nucleotide incorporation / fluorescence	28 µM
CC(C)(C)c1ccc(-n2nnnc2SCC(=O)Nc2ccc(C#CCO)cc2Cl)c(Cl)c1	WT	-	IC50	PicoGreen / fluorescence	<1 µM
CC(C)=CCN1Cc2cc(Cl)cc3[nH]c(=O)n(c23)C[C@@H]1C	-	-	IC50	RT activity	0.2 µM
Cc1cc(CC(=O)Nc2ccc(S(N)(=O)=O)cc2)ccc1Oc1cc(C#N)cc(C#N)c1	-	-	IC50	nucleotide incorporation / radiometric	10 µM
CC(C)(C#Cc1ccc(NC(=O)CSc2nnnn2-c2cc(C3CC3)ccc2Cl)c(Cl)c1)C(=O)O	-	RT-K103 Y181C	IC50	PicoGreen / fluorescence	<1 µM
Cc1c(Cl)ccc2cc(/C=C/C(=O)c3ccc(Cl)cc3)c(Cl)nc12	-	-	IC50	RT activity	0.11 µg/mL
Cc1cc(C#N)cc(Cl)c1Oc1ccnc(NC2CCN(c3cccc(C(N)=O)c3)CC2)n1	-	K103N/Y181C	IC50	scintillation proximity	0.006 µM
CC(C)(C)c1ccc(-n2nnnc2SCC(=O)Nc2ccc(NC(=O)c3ccc(O)cc3)cc2Cl)c(Cl)c1	WT	-	IC50	PicoGreen / fluorescence	<1 µM
Nc1cccc(CNC(=O)c2[nH]c3ccc(Cl)cc3c2S(=O)(=O)c2ccccc2)c1	-	-	IC50	nucleotide incorporation	0.003–0.035 µM
CN1CCN(CC#Cc2ccc(NC(=O)CSc3nnnn3-c3ccc(C(C)(C)C)cc3Cl)c(Cl)c2)CC1	WT	-	IC50	PicoGreen / fluorescence	<1 µM
Cn1cncc1CNC(=O)c1[nH]c2ccc(Cl)cc2c1S(=O)(=O)c1ccccc1	-	-	IC50	nucleotide incorporation	0.003–0.035 µM
Cc1cc(C#N)cc(C)c1Nc1nc(NC2CCN(c3cccc(C(N)=O)c3)CC2)ncc1Br	-	K103N/Y181C	IC50	scintillation proximity	0.016 µM
COc1ccc(OC)c(C/C=C(\C)CC/C=C(\C)CC/C=C(\C)CC/C=C(\C)CC/C=C(\C)CCC=C(C)C)c1	-	-	IC50	nucleotide incorporation	38.5 µM